Compound potency records, mixed from different reports. Data source: NIAID ChemDB in PubChem.

All rows: whole-cell or culture tests; organism: Varicella zoster virus; endpoint: EC50

An empty or dashed field is not shown. Two numbers with a dash give a range or band. Rows are shuffled and stem from different studies. ECn is the concentration giving n% inhibition of infection, replication or growth.

compound	strain	cell line	method	value
CO[C@H](CO)[C@@H](O)CCn1ccc(N)nc1=O	OKA	HEL	cytopathic effect	>400 µg/mL
Cc1cc([C@H]2C[C@H](O)[C@@H](CO)O2)c(Cl)cc1F	(TK-)/YS/R	HEL	plaque count	>200 µM
CC(=O)OCC(COC(C)=O)OCn1cnc2c(=O)[nH]c(N)nc21		HFF	plaque count	0.6 µg/mL
CC(C)(C)c1cn([C@H]2C[C@H](O)[C@@H](CO)O2)c(=O)[nH]c1=O	OKA YS	HEL	plaque count	>170 µM
Cc1cc([C@@H]2C[C@H](O)[C@@H](CO)O2)c(Cl)cc1F	(TK-)07/1	HEL	plaque count	>200 µM
CCCCCCc1cc2cn([C@H]3C[C@H](O)[C@@H](CO)O3)c(=O)nc2[nH]1	YS/R (TK-)	HEL	plaque count	>50 µM
O=C(NCc1ccc(Cl)cc1)c1c[nH]c2c(F)cccc2c1=O	RAI		plaque count	0.5 µM
Cn1cc(C(=O)NCc2ccc(Cl)cc2)c(=O)c2cc(CN3CCOCC3)ccc21	DN zoster isolate	HFF	plaque count	0.1 µM
Cc1c(N)nc(N)nc1OCCOCP(=O)(O)O	OKA	HEL	cytopathic effect	180 µM
O=c1[nH]c(=O)n([C@@H]2O[C@H](CO)[C@@H](O)[C@@H]2O)cc1/C=C/Cl	Kawaguchi (BrdU-resistant)		plaque count	>0.1 µg/mL
Cc1ccc(OCCCc2cc3cn([C@H]4C[C@H](O)[C@@H](CO)O4)c(=O)nc3o2)cc1	(TK+)/OKA	HEL	plaque count	5 µM
OC[C@H]1O[C@@H](c2cc(C(O)C(Br)Br)c(F)cc2F)C[C@@H]1O	07/1 (TK-)	HEL	plaque count	>200 µg/mL
N#CCc1c(N)nc(N)n(CCOCP(=O)(O)O)c1=O	07/1 (TK-)	HEL	cytopathic effect	84 µM
CC1(C)[C@@H](CO)CC[C@@]1(C)Cn1nnc2c(N)ncnc21	OKA	HEL	cytopathic effect	>50 µg/mL
CC1(C)[C@@H](CCO)C[C@H]1n1nnc2c(=O)[nH]cnc21	(TK+)/OKA	HEL	plaque count	>20 µg/mL
N#Cc1ccc(-c2cc3ccccn3c2)cc1	G-31	MRC-5	plaque count	5 µM
Nc1nc2c(ncn2CC[C@H](O)CCO)c(=O)[nH]1	07/1 (TK-)	HEL	cytopathic effect	>400 µg/mL
CCCCCCCCCCc1cc2cn([C@H]3C[C@H](O)[C@@H](CO)O3)c(=O)nc2o1	YS/R (TK-)	HEL	plaque count	>50 µM
CC(=O)OCC(CO)OCn1cnc2c(=O)[nH]c(N)nc21		HFF	plaque count	0.6 µg/mL
CC1(C)[C@@H](CO)CC[C@@]1(C)Cn1cc(I)c(=O)[nH]c1=O	07/1 (TK-)	HEL	cytopathic effect	>50 µg/mL
CCCc1ccc(OCCCc2cc3cn([C@H]4C[C@H](O)[C@@H](CO)O4)c(=O)nc3o2)cc1	(TK-)07/1	HEL	plaque count	>50 µM
OC[C@H]1O[C@H](c2cc(F)c(F)cc2F)C[C@@H]1O	(TK+)/OKA	HEL	plaque count	>200 µM
CC1(C)[C@@H](CCO)C[C@H]1n1nnc2c(N)ncnc21	(TK-)/YS/R	HEL	plaque count	>20 µg/mL
Fc1cccc(-c2cc3ccccn3c2)c1	G-31	MRC-5	plaque count	>40 µM
CC1(C)[C@@H](CO)CC[C@@]1(C)Cn1cc(Br)c(=O)[nH]c1=O	YS	HEL	cytopathic effect	>50 µg/mL
CCCCOC[C@H]1O[C@@H]2CC(C)(C)C[C@@H]2[C@H]1OCCCC	OKA	HEL	plaque count	>80 µg/mL
N#CCc1c(N)nc(N)nc1OCCOCP(=O)(O)O	07/1 (TK-)	HEL	cytopathic effect	110 µM
Clc1ccc(-c2cc3ccccn3c2)cc1Cl	G-31	MRC-5	plaque count	>40 µM
NC1=NC2C(C=CN2CC(CO)CCO)C(=O)N1		VERO	cytopathic effect	0.01–0.1 µM
Fc1ccccc1-c1cc2ccccn2c1	G-31	MRC-5	plaque count	>100 µM
CC1(C)[C@@H](CCO)C[C@H]1n1cnc2c(=O)[nH]c(N)nc21	TK+/YS	HEL	plaque count	>50 µg/mL
O=c1[nH]c(=O)n(C2C[C@H](CO)[C@@H](CO)C2)cc1I	YS	HEL		>100 µg/mL
Nc1ncnc2nn(C[C@@H](CO)OCP(=O)(O)O)nc12	07/1 (TK-)	HEL	cytopathic effect	>100 µg/mL
OC[C@H]1O[C@H](c2ccc(F)cc2F)C[C@@H]1O	TK+/YS	HEL	plaque count	>200 µM
C[C@H](Cn1nnc2c(N)ncnc21)OCP(=O)(O)O	YS/R (TK-)	HEL	cytopathic effect	8 µg/mL
O=c1nc2oc(CCCSc3ccccc3)cc2cn1[C@H]1C[C@H](O)[C@@H](CO)O1	(TK-)07/1	HEL	plaque count	>50 µM
c1coc(-c2cc3ccccn3c2)c1	G-31	MRC-5	plaque count	8.6 µM
CC/C=C/c1cccc(-c2cc3cn([C@H]4C[C@H](O)[C@@H](CO)O4)c(=O)nc3o2)c1		HEL		>12 µM
Nc1nc(F)nc2c1ncn2[C@@H]1C=C(CO)[C@@H](O)[C@H]1O	07/1 YS/R (TK-)	HeLa	cytopathic effect	100 µg/mL
COc1cc(F)c([C@H]2C[C@H](O)[C@@H](CO)O2)cc1[N+](=O)[O-]	(TK+)/OKA	HEL	plaque count	>200 µM
CO[C@H](CO)[C@@H](O)CCn1cnc2c(=O)[nH]c(N)nc21	07/1 (TK-)	HEL	cytopathic effect	>400 µg/mL
CCCCCCCCCCCCc1cc2cn([C@H]3C[C@H](O)[C@@H](CO)O3)c(=O)nc2o1	07/1 (TK-)	HEL	plaque count	>20 µM
CC(C)(C)c1cn([C@H]2C[C@H](O)[C@@H](CO)S2)c(=O)[nH]c1=O	OKA YS	HEL	plaque count	>170 µM
CC1(C)[C@@H](CCO)C[C@H]1n1nnc2c(=O)[nH]c(N)nc21	TK+/YS	HEL	plaque count	>50 µg/mL
Nc1cc([C@H]2C[C@H](O)[C@@H](CO)O2)c(F)cc1F	(TK+)/OKA	HEL	plaque count	>200 µM
Nc1nc2c(ncn2[C@@H]2CO[C@H](CO)[C@@H](O)C2)c(=O)[nH]1		VERO	cytopathic effect	1–10 µM
COc1ncnc2c1ncn2[C@@H]1O[C@H](CO)[C@@H](O)[C@@H]1O	5 clinical isolates	MRC-5	cytopathic effect	1.8 µM
O=c1[nH]c(=O)n([C@@H]2C[C@H](CO)C[C@H]2CO)cc1I	YS/R (TK-)	HEL		>100 µg/mL
OC[C@H]1O[C@@H](c2cc(I)c(F)cc2F)C[C@@H]1O	TK+/YS	HEL	plaque count	>200 µM
Nc1nc2c(ncn2COC(CO)CO)c(=O)[nH]1		VERO	cytopathic effect	10–100 µM
C[C@H]1[C@H](O)[C@@H](CO)O[C@H]1n1cc(Br)c(=O)[nH]c1=O	CAQU	MRC-5	plaque count	10.75 µg/mL
C[C@H](Cn1nc2ncnc(N)c2n1)OCP(=O)(O)O	YS (TK+)	HEL	cytopathic effect	5 µg/mL
C#CCCCCCCc1cc2cn([C@H]3C[C@H](O)[C@@H](CO)O3)c(=O)nc2o1	YS	HEL	plaque count	37 µM
c1ccn2cc(-c3ccsc3)cc2c1	G-31	MRC-5	plaque count	40 µM
CCCCCCCCCCc1cc2cn([C@H]3C[C@H](O)[C@@H](CO)O3)c(=O)nc2n1CCC	YS/R (TK-)	HEL	plaque count	>5 µM
COc1cc(NC(=O)c2ccccc2F)cc(C)c1NC(=S)NC(C)c1ccc(F)cc1	ELLEN	HFF	ELISA	0.7 µg/mL
N#Cc1cc([C@H]2C[C@H](O)[C@@H](CO)O2)c(F)cc1F	(TK+)/OKA	HEL	plaque count	>200 µM
C[C@H]1[C@H](O)[C@@H](CO)O[C@H]1n1cc(I)c(=O)[nH]c1=O	Kanno-Kohmura	MRC-5	plaque count	>50 µg/mL
OC[C@H]1O[C@@H](c2cc(Br)c(F)cc2F)C[C@@H]1O	(TK-)07/1	HEL	plaque count	>200 µM
CO[C@H]1[C@H]2O[Si](C(C)C)(C(C)C)O[Si](C(C)C)(C(C)C)OC[C@@H]2O[C@@H]1c1ccccc1	07/1	HEL	plaque count	>2 µg/mL
C[C@@H](NC(=O)C1(Cc2ccccc2)CCN1C(=O)OCc1ccccc1)C(=O)OC(C)(C)C	OKA (TK+)	HEL	plaque count	>16 µM
O=c1[nH]c(=O)n([C@H]2C[C@H](O)[C@@H](CO)O2)cc1C1CC1	OKA YS	HEL	plaque count	166 µM
CCCCCCCCCCc1cc2cn([C@H]3C[C@H](O)[C@@H](CO)O3)c(=O)nc2n1C	YS	HEL	plaque count	8 µM
Nc1nc(N)c(Br)c(OCCOCP(=O)(O)O)n1	OKA	HEL	cytopathic effect	150 µM
CO[C@@H]1[C@H](O)[C@@H](CO)O[C@H]1c1ccccc1	07/1	HEL	plaque count	>50 µg/mL
CC(NC(=S)Nc1ccc(NC(=O)c2nccc3ccccc23)cc1)c1cc2ccccc2o1	JAB1233	HFF	ELISA	0.16 µg/mL
Nc1nc(=O)n([C@@H]2O[C@H](CO)[C@@H](O)[C@@H]2F)cc1I	CAQU	MRC-5	plaque count	0.015 µg/mL
O=c1[nH]c(=O)n([C@@H]2O[C@H](CO)[C@@H](O)[C@@H]2O)cc1/C=C/Br	Kawaguchi acyclovir-resistant mutant A8		plaque count	0.000103 µg/mL
Nc1nc2nn(CCOCP(=O)(O)O)nc2c(=O)[nH]1	YS/R (TK-)	HEL	cytopathic effect	40 µg/mL
Nc1ncnc2c1ncn2CC[C@H](O)CCO	YS/R (TK-)	HEL	cytopathic effect	>400 µg/mL
CCCCCCCCCCc1cc2cn([C@H]3C[C@H](O)[C@@H](CO)O3)c(=O)nc2n1CC	OKA	HEL	plaque count	>5 µM
FC(F)(F)c1cc(Cl)c2cc(-c3ccccc3)cn2c1	G-31	MRC-5	plaque count	20–50 µM
O=c1ccn([C@@H]2C[C@H](CO)C[C@H]2CO)c(=O)[nH]1	YS/R (TK-)	HEL		>100 µg/mL
CC1(C)[C@@H](CO)CC[C@@]1(C)Cn1nnc2c(=O)[nH]cnc21	OKA	HEL	cytopathic effect	>50 µg/mL
O=C(NCc1ccc(Cl)cc1)c1c[nH]c2ccc(C#CCO)cc2c1=O	20 isolates		plaque count	0.2 µM